Assay results from patent US10016498B2, “D-amino acid derivative-modified peptidoglycan and methods of use thereof” (priority 2012, dated 2018).

Assays:
[1] = system: bacteria (E. coli, Bacillus subtilis, L. monocytogenes, Mycobacterium tuberculosis, Streptomyces coelicolor, Corynebacterium glutamicum); settings: strain-promoted cycloaddition or CuAAC with fluorescent dye
[2] = system: L. monocytogenes; settings: 5 mM azDala, 2 mM D-alanine, strain-promoted cycloaddition, dal- dat- L. monocytogenes
[3] = system: L. monocytogenes proteins and LTA; assay: Immunoblot for incorporation of azDala into proteins and lipoteichoic acids

SMILES: [N-]=[N+]=NC[C@@H](N)C(=O)O
- cell surface labeling by microscopy [1]: Clear cell surface labeling of all species tested
- labeling on addition of exogenous D-alanine [2]: suppressed
- incorporation into LTA (phosphine-FLAG, immunoblot) [3]: No azide-labeled species was detected
- incorporation into proteins (lysates reacted with alkyne-biotin, immunoblot) [3]: No azide-labeled proteins were detected
